Construct, isoform or probe ends are uncertain for at least one entry. For some assays here: A negative result means that nothing was seen under these conditions. For some assays here: A weaker result is weaker than the reference pair of the same experiment. For some assays here: Protein sequences can lack the tags named with them.

Series [1] relates to T1, LugJ (Staphylococcus lugdunensis IVK28).
T1 sequence (looked up, limits assumed): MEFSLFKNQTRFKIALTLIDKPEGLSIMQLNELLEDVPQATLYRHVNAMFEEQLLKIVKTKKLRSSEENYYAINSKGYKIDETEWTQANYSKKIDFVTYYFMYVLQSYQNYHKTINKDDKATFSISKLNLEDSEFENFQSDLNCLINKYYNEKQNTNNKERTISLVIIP
As to the kind of experiment: EMSA. The conditions noted are these: 10 mM Tris/HCl pH 7.4, 10 mM NaCl (LugJ) or 100 mM NaCl (LugR), 0.1 mg/mL BSA, 1 mM DTT, 1 mM EDTA, 10% glycerol, 30 min at 25 C, 20 ul, 5% native PAGE, recombinant protein, protein details: 8xHis (N-terminal, pET-28a derived), label: 5' DY-781 (both primers), probe letters rebuilt from the primers and the genome. (Mobility shift assays separate free from complexed probe on a gel.)

The test system is the same in series [2]. As to the kind of experiment: competition with a labelled probe. The note with it: 10 mM Tris/HCl pH 7.4, 10 mM NaCl (LugJ) or 100 mM NaCl (LugR), 0.1 mg/mL BSA, 1 mM DTT, 1 mM EDTA, 10% glycerol, 30 min at 25 C, 20 ul, 5% native PAGE, recombinant protein, protein details: 8xHis (N-terminal, pET-28a derived).
For series [3], the target named is T2, LugR (Staphylococcus lugdunensis IVK28) (UniProt A0A292DID1).
T2 sequence (looked up, limits assumed): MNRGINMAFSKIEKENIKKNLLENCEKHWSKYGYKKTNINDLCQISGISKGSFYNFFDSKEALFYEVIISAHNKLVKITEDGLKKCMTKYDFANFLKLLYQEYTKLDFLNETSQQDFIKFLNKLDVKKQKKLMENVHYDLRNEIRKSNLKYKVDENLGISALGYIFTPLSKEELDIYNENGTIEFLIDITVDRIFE
As to the kind of experiment: competition with a labelled probe. The note with it: 2 uM LugR, 50 or 100 ng competitor vs PlugR; 10 mM Tris/HCl pH 7.4, 10 mM NaCl (LugJ) or 100 mM NaCl (LugR), 0.1 mg/mL BSA, 1 mM DTT, 1 mM EDTA, 10% glycerol, 30 min at 25 C, 20 ul; 5% native PAGE; recombinant protein; protein details: 8xHis (N-terminal, pET-28a derived).

The mark [4] stands for this setting: 2 uM LugJ, 50 or 100 ng competitor vs PlugI.

Turning to “ACATAACACCTCACTTTATACATAATAATTGATTTTTAAATAAATGTACAGTAACATTATCATTATCAATAATGATAATGGAGGGTGAAAATG (double strand) [PlugI promoter fragment]”, in series [1] (lugdunin 1-20 uM, dose-dependent release, almost complete at molar excess), the binding result is “binds more weakly”.
Turning to “CAATGTAAATGTAGTATAAAATCCACAATAGAATATTCTTATTATTAGAAGATTAGTTGACAAAATATTTTATTCTTTATCTTTAGAGATGTAATAGACACAATAAAGAAAAATCAATATTTTAAAAAATATTCGCTTAATATAGTTGACATATTAATTAAATAGATTAAGATAAAAGTGACTAGAAAAATTTATTTGGTCATAAATGAATAGGGGTATTAAT (double strand) [PlugR promoter fragment]”, the binding result in series [1] is listed as “no binding”.
For the sequence “CAATGTAAATGTAGTATAAAATCCACAATAGAATATTCTTATTATTAGAAGATTAGTTGACAAAATATTTTATTCTTTATCTTTAGAGATGTAATAGACACAATAAAGAAAAATCAATATTTTAAAAAATATTCGCTTAATATAGTTGACATATTAATTAAATAGATTAAGATAAAAGTGACTAGAAAAATTTATTTGGTCATAAATGAATAGGGGTATTAAT (double strand) [cold PlugR]”, the binding result in series [2] (cold PlugR does not affect PlugI shift, probe letters rebuilt from the primers and the genome) is listed as “no binding”.
For the sequence “GATAAAAGTTAATTGTATAGCTTAATAGATTATAAATGAATAG / CTATTCATTTATTAACTATTTAGCTTTACAAATTACTTTTATC [PallugR scram2]”, the binding result in series [3] was “binds more weakly”.
The same measure, in the same setting: to “GATAAAAGTTTATTTGGTCATGACTAGAAAAATAAATGAATAG (double strand) [PallugR scram1]” belongs “binds more weakly”.
Turning to “GTACAGTAAAAGTTTAAGTTTCAAAAGTTAAATTAGAGGGTG / CACCCTCAAGTTTAAGTTTTGAAAGTTAAATTATTACTGTAC [PallugI scram2]”, the binding result in series [2] (setting [4]) is reported as “no binding”.
Take “GTACAGTAAATAATGATAATGCACATTATCATTATGAGGGTG (double strand) [PallugI scram1]”: in series [2] (setting [4]), the binding result was “no binding”.
Still for that read-out and setting: to “GTACAGTAACATTATCATTATCAATAATGATAATGGAGGGTG (double strand) [PallugI native]” belongs “binds”.

The values are drawn from paper PMC11980582, “The human microbiome-derived antimicrobial lugdunin self-regulates its biosynthesis by a feed-forward mechanism”.
